Experimental data from article PMC5242492.
For at least one entry, the source does not settle the construct or the ends of the probe.

Target: SrrA (phosphorylated with acetylphosphate, SrrA~P) (UniProt A0A0H2XI68)
Assay: EMSA
Conditions: 15-146 ng SrrA, poly(dI-dC), decreased by excess unlabeled promoter DNA; recombinant protein; residues 1-241; protein details: C-terminal poly-His (pET20b); label: biotin (one labeled primer); probe letters rebuilt from the primers and the genome

Sequence: ACAGGTCATACCTCCCACACATGCTTTTCTTTACAAAAGTATTATATCACAGGAAAGCGCATACAGTTATTAAAAACCTAAAATTTTGTGAAAAAATTCTCAAACTTTGTGATAAATACATATTTTATTTAATTATTTCCCATGTTCTGC (double strand) [srrA promoter, 150 bp]
- binding result: binds

Sequence: ATTTAGGCATTTAAATAGCGGAACACTTTACGGTTAGATTAGAATAATTATAAAAAAGAGAGCAAAAACACTTTACAGATTAGAATTATTATAATATAATAATTAATATAAACAAGCAAGACGTAGACAATTTTAAGGAGTGTATTAAAT (double strand) [dps promoter, 150 bp]
- binding result: binds
